B1: CNID-1: HIV-inhibitory protein from soft coral Synthecium sp.; 172 amino acids, 18,122 Da, SEQ ID NO: 1 (protein)
chain: GRATLGQLKTSTIPPVTFDVPFDGANIPQDVRFTIATVNGGKGALYNAELGESAGHTIVLESDGDHPIPGTFDPKSGRGLDYLPRGLVLFSSHNYVGNMKMYTEPDSDITADFPPGTPFGVSSAITGEGSAFQLNTGIDHTGEFEIIPPNTKRNLAGVFDNEIRSVSPTGGK
B2: CNID-3: HIV-inhibitory protein from soft coral Synthecium sp.; 170 amino acids, 17,963 Da, SEQ ID NO: 3 (protein)
chain: GKSAYPGQITSDVPFVTFDVPFDGVNIPQDVRFTIATVNGGKLALYNAKLGDPANNTIVLESDGDHPIPGTFDDPKGRGLDYAFGGLLLFSFHNFVGHKKLYREPDSDITADFPPGLGGSSAITGEGSTVQLYTGIDFTGISEIMPVNTKRNFVVAFGNEFKSVSPTGGG

Assays:
HIV-1US/92/727 = test: Anti-HIV evaluation in PHA-stimulated human PBMCs, reverse transcriptase in supernatant; assay type: cell-based; settings: HIV-1US/92/727, human PBMCs
Method: The cultures were incubated for 7 days at 37° C./5% CO2. Efficacy of the compounds was evaluated by measuring the amount of reverse transcriptase in the culture supernatant and toxicity was evaluated using XTT to measure cell viability. AZT was evaluated in parallel as an assay control.

CEM-SS cells = test: Direct toxicity to uninfected CEM-SS control cells (XTT); assay type: cell-based, human; settings: HIV-1RF EC50
Method: A 2,3-bis-[2-methoxy-4-nitro-5-sulfophenyl]-2H-tetrazolium-5-carboxanilide inner salt (XTT)-tetrazolium-based assay was used to determine the anti-HIV activity of CNID-1, -2 and -3 against a T-tropic laboratory strain (HIV-1RF) in T-lymphoblastic CEM-SS cells as described previously (Gulakowski et al., J. Virol. Methods, 33: 87-100 (1991)). CEM-SS cells were maintained in RPMI 1640 media without phenol red and supplemented with 10% fetal bovine serum (BioWhittaker), 2 mM L-glutamine (BioWhittaker), and 50 μg/ml gentamicin (BioWhittaker) (complete medium). Exponentially growing cells were washed and resuspended in complete medium, and a 50 μl aliquot containing 5×10^3 cells was added to individual wells of a 96-well round-bottom microtiter plate containing serial dilutions of the respective cnidarin protein in a volume of 100 μl of medium. Stock supernatants of HIV-1RF were diluted in complete medium to yield sufficient cytopathicity (80-90% cell kill in 6 days), and a 50 μl aliquot was added to appropriate wells. Plates were incubated for 6 days at 37° C. and then stained for cellular viability using XTT.
The HIV reverse transcriptase inhibitor 3′-Azido-3′-deoxythymidine (AZT) was used as a positive control. All assays were carried out in triplicate for all viruses and cells.

| Molecule | TI (therapeutic index) (HIV-1US/92/727) | Direct toxicity to uninfected control cells compared to EC50 (CEM-SS cells) |
| --- | --- | --- |
| B1 | >11.71 | 1325 fold |
| B2 | >31.25 | > 1475 fold |
